The series is described as follows: Solubility of ibuprofen salts in saturated solutions at room temperature (HPLC, UV detection). To be noted: Glycerinmonoricinoleat. The text has this:
Zur Bestimmung der Löslichkeit der Ibuprofen-Salze werden bei Raumtemperatur gesättigte Lösungen hergestellt. Ein aliguoter Teil dieser Lösungen wird mit einem mit der Lösung mischbaren Lösungsmittel verdünnt und der Gehalt an Ibuprofen mittels HPLC über eine Reversed-Phase-Säule und UV-Detektion bestimmt.

On to Ibuprofen-Calciumsalz, for which the “Löslichkeit von Ibuprofen-Salzen bei Raumtemperatur” value is 64 mg Ibuprofen/ml.

The values above are taken from patent publication EP0429856A2, “Pharmaceutical preparation containing a metal salt of ibuprofen and process for making same” (Dolorgiet GmbH & Co. KG, priority 1989, dated 1991).
